This test deals with SARS-CoV-2 M^pro (Severe acute respiratory syndrome coronavirus 2, UniProt P0DTD1). In kind it is biochemical. Particulars: read-out: SARS-CoV-2 M^pro IC50; FRET assay, 50 nM M^pro, 10 min preincubation.

This note sets out measurements from publication PMC9959258, “Discovery of Polyphenolic Natural Products as SARS-CoV-2 M^pro Inhibitors for COVID-19” (Pharmaceuticals, 2023).

Turning to Myricitrin, the IC50 is over 10 µM.
